A mixed list of measured activities; the numbers were collected in NIAID ChemDB.

Shared fields: host cell toxicity; cell line: PBMC; read-out: CC50

Blank or dashed fields: not listed here. Lines come from different laboratories, so protocols vary. CCn: concentration that lowers growth or viability of the cells by n%.

smiles	read by	value
[N-]=[N+]=N[C@H]1C[C@H](n2ccc(=O)[nH]c2=O)O[C@@H]1COP(=O)(O)OP(=O)(O)O[C@H]1O[C@H](CO)[C@@H](O)[C@H](O)[C@H]1O	-	>100 µM
CCOC(=O)[C@H](C)NP(=O)(OC[C@@H]1OC[C@H](n2cnc3c(N)nc(N)nc32)O1)Oc1ccccc1	-	67 µM
C[C@@H]1NC(=O)[C@H](C)N([C@H]2C[C@H](N=[N+]=[N-])[C@@H](CO)O2)C1=O	XTT	>100 µM
CN1c2c(-c3ccccc3)nn(CC(=O)N/N=C/c3ccccc3F)c2-c2ccccc2S1(=O)=O	-	>100 µM
CN(C)CCSc1cccc(-c2ccnc(SCCN(C)C)n2)c1	-	100 µM
Nc1nccc2c1ncn2[C@@H]1C[C@H](CO)[C@@H](O)[C@H]1O	-	9.98 µM
Nc1ccn([C@H]2O[C@@H](CO)C=C2F)c(=O)n1	-	>100 µM
CN1c2c(-c3ccccc3)nn(CC(=O)N/N=C/c3c(Cl)cccc3Cl)c2-c2ccccc2S1(=O)=O	-	>100 µM
COc1cc2ccnc3c2c(c1OS(C)(=O)=O)N(C)C=C3	-	1.8 µM
Nc1nccc2c1ncn2[C@@H]1C=C(CO)[C@@H](O)[C@H]1O	-	9.99 µM
COc1ccc(S(=O)(=O)NCCc2ccc3c(n2)NCCC3)cc1	-	50 µM
Cc1ccc2nc(Cl)c(/C=C/C(=O)c3ccc(C)o3)cc2c1	MTS	10.8 µM
CN1CCN(c2nc(-c3cccs3)cc(-c3cccs3)n2)CC1	-	100 µM
CC(=O)Nc1ccc(/C=N/NC(=O)Cn2nc(-c3ccccc3)c3c2-c2ccccc2S(=O)(=O)N3C)cc1	-	>100 µM
[N-]=[N+]=N[C@H]1C[C@H](N2CC(=O)NCC2=O)O[C@@H]1CO	XTT	>100 µM
O=c1[nH]cnc2c1ncn2[C@@H]1C[C@H](CO)C=C1F	MTT	>100 µM
CN(CCCN)CCCNc1nc(-c2cccs2)cc(-c2cccs2)n1	-	100 µM
Nc1nc(Cl)nc2c1ncn2[C@H]1O[C@H](CO)[C@@H](F)[C@@H]1F	-	9.4 µM
CCCCCCC[n+]1ccc2cc(OC)c(OC)c3c2c1C=CN3	-	1.1 µM
CSCSc1nc(Cc2cc(C)cc(C)c2)c(C(C)C)c(=O)[nH]1	-	>100 µM
CCCCCC[n+]1ccc2cc(OC)c(OC)c3c2c1C=CN3	-	3.2 µM
O=c1ccn([C@H]2C[C@@H](CO)C=C2F)c(=O)[nH]1	MTT	>100 µM
NCCNc1nc(-c2ccoc2)cc(-c2cc3ccccc3s2)n1	-	10 µM
CC(C)c1ccc(C2(CN)CCC(=O)N2c2ccccc2)cc1	absorbance	48.3 µM
COc1ccc2nc(Cl)c(/C=C/C(=O)c3ccc(C)o3)cc2c1	MTS	4.5 µM
COc1ccc(C(=O)/C=C/c2cc3ccc(Cl)c(C)c3nc2Cl)c(Br)c1	MTT	47.08 µM
CN(C)CCNc1nc(-c2cccc(SCCN(C)C)c2)cc(-c2cccs2)n1	-	10 µM
C#Cc1cnc(OC)nc1OC	-	>100 µM
Cc1ccc(N2C(=O)CCC2(C#N)c2ccc(OCc3ccccc3)cc2)cc1	absorbance	>100 µM
OCCN(CCO)CCOc1nc(-c2cccs2)cc(-c2cc3ccccc3s2)n1	-	100 µM
Nc1ncnc2c1ncn2[C@@H]1C[C@H](CO)C=C1F	MTT	>100 µM
CCCCCCCCCCCCCCCCS(=S)CCOP(=O)(CO[C@H](C)Cn1cnc2c(N)ncnc21)OCC(C)C	XTT / absorbance	23.7 µM
C[n+]1cccc(-c2c3nc(c(-c4ccccc4)c4ccc([nH]4)c(-c4ccccc4)c4nc(c(-c5ccc[n+](C)c5)c5ccc2[nH]5)C=C4)C=C3)c1	-	>100 µM
CN1CCN(c2nc(-c3cccs3)cc(-c3cc4ccccc4s3)n2)CC1	-	100 µM
O=C(O)[C@H]1O[C@@H](Oc2cc3oc(-c4ccc(O)cc4)cc(=O)c3c(O)c2O)[C@H](O)[C@@H](O)[C@@H]1O	MTT	336 µM
CN(C)CCSc1ccc(-c2ccc(-c3ccc(SCCN(C)C)cc3)nn2)cc1	-	10 µM
Nc1ncnc2c1ncn2[C@@H]1O[C@H](CO)[C@@H](F)[C@@H]1F	-	>100 µM
NC(=NCCC[C@H](N)C(=O)O)NC1c2ccc3cc4c5c6c(cc7ccc8cc9cc1c1c9c9c8c7c6c9c6c1c2c3c56)C4	trypan blue	>600 µM
C=C1CN(S(=O)(=O)c2ccc(C)cc2)CCCN(Cc2ccccc2)CCCN(S(=O)(=O)c2ccc(C)cc2)C1	-	>30 µM
Cc1cn([C@H]2C[C@@H](CO)C=C2F)c(=O)[nH]c1=O	MTT	>100 µM
C=Cc1c(C)c2cc3[nH]c(cc4nc(cc5nc(cc1[nH]2)C(C)=C5CCC(=O)OC)C(CCC(=O)OC)=C4C)c(C)c3C=C	-	>100 µM
COc1ccc2nc(Cl)c(/C=C/C(=O)c3cccc4ccccc34)cc2c1	MTS	23.2 µM
CN1CCN(CCSc2nc(-c3cc4ccccc4s3)c3ccccc3n2)CC1	-	10 µM
CN(C)CCSc1cccc(-c2cc(-c3cccs3)nc(SCCN(C)C)n2)c1	-	10 µM
COc1cc2c3c(cc[n+](C)c3c1OC)NC=C2	-	21.2 µM
CN(CCc1ccccc1)C(=O)NCCc1ccc2c(n1)NCCC2	-	50 µM
Cc1c(Cl)ccc2cc(/C=C/C(=O)c3ccccc3Br)c(Cl)nc12	MTT	20.01 µM
Nc1ccn([C@H]2C[C@@H](CO)C=C2F)c(=O)n1	MTT	>100 µM
COc1ncc(C#C[Si](C)(C)C)c(OC)n1	-	≥100 µM
CN(C)CCSc1ccc(-c2cc(-c3ccc(SCCN(C)C)cc3)ncn2)cc1	-	100 µM
C=C[C@]1(OCP(=O)(O)O)C[C@@H](n2cnc3c(N)ncnc32)C=C1F	MTT	≥10 µM
Cc1cn([C@@H]2C[C@H](CO)C=C2F)c(=O)[nH]c1=O	MTT	>100 µM
O=C(O)CN(CCN(CC(=O)O)Cc1cnc2c(O)cccc2c1)CC(=O)O	MTT	>50 µM
COc1ccc(C(=O)/C=C/c2cc3ccc(Cl)c(C)c3nc2Cl)cc1OC	MTT	40.01 µM
O=C(O)CCCCCNC1c2ccc3cc4c5c6c(cc7ccc8cc9cc1c1c9c9c8c7c6c9c6c1c2c3c56)C4	trypan blue	>1000 µM
CCCCCCCCCCCCCCCC(=O)Nc1nc(N)nc2c1ncn2[C@H]1CO[C@@H](COP(=O)(N[C@@H](C)C(=O)OCC)Oc2ccccc2)O1	-	7.9 µM
C[C@H](Cn1cnc2c(N)ncnc21)OCP(=O)(O)O	MTT	≥10 µM
O=C(Cc1cccc(C(F)(F)F)c1)NCCc1ccc2c(n1)NCCC2	-	5.2 µM
CCCC(=O)Nc1nc(N)nc2c1ncn2[C@H]1CO[C@@H](COP(=O)(N[C@@H](C)C(=O)OCC)Oc2ccccc2)O1	-	>100 µM
Cc1c(Cl)ccc2cc(/C=C/c3csc(Cl)c3)c(Cl)nc12	MTT	24.8 µM
CC[n+]1ccc2cc(OC)c(OC)c3c2c1C=CN3	-	95.7 µM
CCCCCCCC/C=C\CCCCCCCC(=O)Nc1nc(N)nc2c1ncn2[C@H]1CO[C@@H](COP(=O)(N[C@@H](C)C(=O)OCC)Oc2ccccc2)O1	-	10 µM
Cc1ccc2nc(Cl)c(/C=C/C(=O)c3cc(C)sc3C)cc2c1	MTS	13 µM
CN(C)CCNc1nccc(-c2nccs2)n1	-	100 µM
CCCCCCCCC[n+]1ccc2cc(OC)c(OC)c3c2c1C=CN3	-	3.2 µM
CN(C)CCSc1cccc(-c2cc(-c3cccc(SCCN(C)C)c3)ncn2)c1	-	10 µM
N#CC(NCc1ccc(C=O)cc1)c1ccccc1	absorbance	23.5 µM
CSCSc1nc(Cc2ccccc2)c(C(C)C)c(=O)[nH]1	-	>100 µM
CC(C)[C@@H]1NC(=O)[C@H](C(C)C)N([C@H]2C[C@H](N=[N+]=[N-])[C@@H](CO)O2)C1=O	XTT	>100 µM
C#Cc1cnc(C(C)=O)nc1C(C)=O	-	>100 µM
Cc1c(-c2ccc(SCCN(C)C)cc2)ncnc1-c1ccc(SCCN(C)C)cc1	-	100 µM
COc1ccc(CNC(=O)NCCc2cccc(-n3ccnc3)n2)cc1	-	14.3 µM
CC(C)CCC[C@@H](C)[C@H]1CCC2C3CCC4C[C@@H](OCc5cn([C@@H]6O[C@H](COS(=O)(=O)[O-])[C@@H](O[C@H]7O[C@H](COS(=O)(=O)[O-])[C@@H](O[C@H]8O[C@H](COS(=O)(=O)[O-])[C@@H](OS(=O)(=O)[O-])[C@H](OS(=O)(=O)[O-])[C@H]8OS(=O)(=O)[O-])[C@H](OS(=O)(=O)[O-])[C@H]7OS(=O)(=O)[O-])[C@H](OS(=O)(=O)[O-])[C@H]6OS(=O)(=O)[O-])nn5)CC[C@]4(C)C3CC[C@@]21C	-	300 µg/mL
CCCCCCCCCCCC(=O)Nc1nc(N)nc2c1ncn2[C@H]1CO[C@@H](COP(=O)(N[C@@H](C)C(=O)OCC)Oc2ccccc2)O1	-	14 µM
C=Cc1c(C)c2cc3[nH]c(cc4nc(cc5nc(cc1[nH]2)C(C)=C5CCC(=O)O)C(CCC(=O)O)=C4C)c(C)c3C=C	-	>100 µM
O=C(NCCc1ccc2c(n1)NCCC2)Nc1ccccc1C(F)(F)F	-	29 µM
C[n+]1ccc(-c2c3nc(c(-c4ccccc4)c4ccc([nH]4)c(-c4cc[n+](C)cc4)c4nc(c(-c5ccccc5)c5ccc2[nH]5)C=C4)C=C3)cc1	-	>100 µM
CN(C)CCNc1nc(-c2cccs2)cc(-c2cc3ccccc3s2)n1	-	>100 µM